The supplement of paper PMC9931576
Changes are numbered by the printed parent chain. Human monoclonal antibodies against the spike receptor-binding domain (heavy:light variable regions). IC50 against pseudoviruses bearing the spike of naturally observed variants; lower = stronger; >10 µg/ml means not reached at the top dose. No active / inactive call. The stated detection limit is 0.0005 µg/ml; values near or below 0.001 µg/ml lie at the floor of the assay.

B1: BD56-1853 (protein)
chain 1: QVQLVQSGAEVKKPGSSVKVSCKASGDTFSRYAISWVRQAPGQGLEWMGRIIPMFDMAASAQKFQGRATITADKSTSTAYMEITSLRSEDTAVYYCATSAYFYGSDGYYLDSWGQGTLVTVSS
chain 2: EIVLTQSPGTLSLSPGERATLSCRASQSISSNYLAWYQQKPGQAPRLLIYGASSRATGIPDRFSGGGSGTDFTLIISRLEPEDFAVYYCHQYHNSPRTFGQGTKVEIK
B2: BD56-1832 (protein)
chain 1: EVQLLESGGALVQPGGSLNLSCAASGFTFSNYAMVWLRQAPGKGLEWVSGISGSGTDTFYAESVKGRFTISRYNSKNTLYLQMNSLRVEDTAIYYCAKGELLWFGELLNGWFDPWGQGTLVTVSS
chain 2: DVQMTQSPSSLSTSVGDRVTITCRAGQNINNYLNWYQHKPGKAPKLLIYAASSLQSGVPSRFSGSGSGTDFTLTISSLQPEDFATYYCQEFYSSQYTFGQGTKLEIK
B3: BD56-1856 (protein)
chain 1: QVQLVHSGAEVKKPGSSVKVSCKASGGTFNSYAISWVRQAPGQGLEWMGRVIPIFDIVHYAQKFQDRVTISADTSTSTVYMELGSLRSEDTAIYYCARSFVGPKGKEDYYFDYWGQGTLVTVSS
chain 2: EIVLTQSPATLSLSPGERATLSCRASQSVSNYLAWYQQKPGQAPRLVIYDASKRATGIPARFSGSGSGTDFTLTISSLEPADFAVYYCQQRSIRALAFGGGTKVEIK
B4: BD56-1861 (protein)
chain 1: QVQLVHSGAEVKKPGSSVKVSCKASGGTFSNYAISWVRQAPGQGLEWMGRIIPMFDIVHYAQKFQGRVTITADKSTNTVFMEVGSLRSDDSAVYYCARSFVGPKGKEDYYFDYWGQGTLVTVSS
chain 2: B3 chain 2 with S30G, N31S, Y32D, R94Q
B5: BD56-1841 (protein)
chain 1: EVQLVESGGGLVKPGGSRRLSCAASGFTFSSYSMNWVRQAPGKGLEWVSSISSTSDFKNYADSVKGRFTISRDNAKNSLYLQMNSLRAEDTALYYCARDADVVVVAASSRGLGYYYGLDVWGQGTTVTVSS
chain 2: DIQMTQSPSSLSASVGDSVTITCRASQSISKYLNWYQQKPGKAPKLLIYAASSLQSGVPSRFSGSGSGTDFTLTISSLQPEDFATYYCQQSYTIPPITFGQGTRLEIK
B6: BD56-1845 (protein)
chain 1: QVQLQQWGAGLLKPSETLSLTCVVYGGSFSDYSWSWIRQPPGKGLEWIGEINHSGFTNYNPSLKSRVTISVDTSKNQFSLKVSSVTAADTAVYYCARVSAHRIAVAGTGWFDPWGQGTPVTVSS
chain 2: B5 chain 2 with G16R, S18R, K31R, F83C, T93E, I94T, I97V, Q101G, R104K, L105V
B7: BD56-1839 (protein)
chain 1: QVQLVQSGAEVKKPGSSVKVSCKASGGTFPRHAFNWVRQAPGQGLEWMGRVSPILGIPQYAQNFQGTVTITADTSTSTAYMELSSLRSEDTAVYFCATAKFDDASGSYHDAFDGWGQGTLVTVSS
chain 2: DIQMTQSPSTLAASVGDRVTITCRASQRINNWLAWYQQKPGKAPNLLIYDASTLESGVPSRFSGGGSGTEFTLTISSLRPDDFATYYCQQYESYSPLTFGGGTKVEIK
B8: BD56-1862 (protein)
chain 1: QVQLVQSGAEVMKPGSSVKVSCKASGGTFSSFAITWVRQAPGQGLEWMGRIIPILSVANYAQKLQGRVTISADKSTSTAYMELSRLTSEDTAVYYCAAALQDGYRGYDLLAYWGQGTLVTVSS
chain 2: B7 chain 2 with A12S, R28S, N45K, T53S, G65S, R79Q, E92K, G101Q
B9: BD56-1843 (protein)
chain 1: QVQLVQSGAEVKKPGSSVKVSCKASGGTFNLYAISWVRQAPGQGLEWMGRIIPLNGIANYAQKFQGRLTITADKSTSTSYMDLSSLRSHDTAVYYCTRSTLAAAGVSVVDAFDIWGQGTMIAVSS
chain 2: DIQMTQSPSTLSASVGDRVTITCRASQRINSWLAWYQQHPGKAPKLLIYDASSLQSGVPPRFSGSGAGTEFTLTISSLQPDDFATYYCQQYESYSPITFGGGTKVEMK
B10: BD56-1842 (protein)
chain 1: EVQLMESGGKLVQPGRSLRLSCAASGFAFGDYAIHWVRQAPGKSLEWISGINWNKDPIRYADSVKGRFTISRDNAKNSLFLQMDSLRVEDTALYYCAKDIGRFIYGEAFDIWGQGTMVTVSS
chain 2: DIQMTQSPSSLSASVGDRVTITCRASQNIASYLNWYQLKPGRAPKLLISATSSLQSGVPSRFSGSGSGTDFTLTISSLQPEDFATYSCQQSYSTLVFTFGPGTKVEIK
B11: BD56-1847 (protein)
chain 1: EVQLVESGGGLVQPGGSLRLSCAASGFTVSSNYMNWVRQAPGKGLEWVSVMYAGGSTFYADSVKGRFTISRHNSRNTLYLQMNSLRAEDTAVYYCARDAITYGMDVWGQGTTVTVSS
chain 2: DIQMTQSPSSLSASVGDRVTITCRASQSISSDLNWYQQKPGKAPKLLIHAASSLQSGVPSRFSGSGSGTDFTLTISSLQPEDFATYFCQQSYSTPPVTFGGGTKVDIK
B12: BD56-1849 (protein)
chain 1: EVQLVESGGGLVQPGRSLRLSCAASGFTFDDYAIHWVRQAPGKGLEWVSGVSWNSATIGYADSVKGRFIISRDNAKNSLYLQMNSLRAEDTALYYCAKDIGPKFYDILTGYFKEGHFGMDVWGQGTMVTVSS
chain 2: QSALTQPASVSGSPGQSITLSCTGTSSDVGGYNYVSWYQQHPGKAPKIMIYDVSNRPSGVSNRFSGSKSGNTASLTISGLQAEDEADYYCSSYTSSSTVVFGGGTKLTVL

Experiments:
Assay in all cases: pseudovirus neutralization IC50; higher = weaker neutralization
[1] = molecular target: SARS-CoV-2 Omicron BA.1 spike pseudovirus
Description: (§1)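 Single-round VSV luciferase pseudovirus mixed with antibody dilutions for 1 h and put on Huh-7 cells for about a day; IC50 from the dose curve.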

[2] = molecular target: SARS-CoV-2 Omicron BA.2 spike pseudovirus
Description: as §1

[3] = molecular target: SARS-CoV-2 Omicron BA.2.75 spike pseudovirus
Description: as §1

[4] = molecular target: SARS-CoV-2 Omicron BA.5 spike pseudovirus
Description: as §1

[5] = molecular target: SARS-CoV-2 Omicron BQ.1.1 spike pseudovirus
Description: as §1

[6] = molecular target: SARS-CoV-2 Omicron XBB spike pseudovirus
Description: as §1

[7] = molecular target: SARS-CoV-2 early D614G spike pseudovirus
Description: as §1

Row | Binder | pseudovirus neutralization IC50 [1] | pseudovirus neutralization IC50 [2] | pseudovirus neutralization IC50 [3] | pseudovirus neutralization IC50 [4] | pseudovirus neutralization IC50 [5] | pseudovirus neutralization IC50 [6] | pseudovirus neutralization IC50 [7]
1 | B1 | 0.00607 µg/mL | 0.00539 µg/mL | 0.00129 µg/mL | > 10 µg/mL | > 10 µg/mL | > 10 µg/mL | 0.00241 µg/mL
2 | B2 | 0.681 µg/mL | 0.625 µg/mL | 0.402 µg/mL | 0.195 µg/mL | > 10 µg/mL | > 10 µg/mL | 0.474 µg/mL
3 | B3 | 0.00303 µg/mL | 0.00245 µg/mL | 0.00437 µg/mL | > 10 µg/mL | > 10 µg/mL | > 10 µg/mL | 0.00282 µg/mL
4 | B4 | 0.00158 µg/mL | 0.00136 µg/mL | 0.00201 µg/mL | > 10 µg/mL | > 10 µg/mL | > 10 µg/mL | 0.00438 µg/mL
5 | B5 | > 10 µg/mL | > 10 µg/mL | > 10 µg/mL | > 10 µg/mL | > 10 µg/mL | > 10 µg/mL | > 10 µg/mL
6 | B6 | > 10 µg/mL | > 10 µg/mL | > 10 µg/mL | > 10 µg/mL | > 10 µg/mL | > 10 µg/mL | 0.155 µg/mL
7 | B7 | 0.0101 µg/mL | 0.00558 µg/mL | 0.00279 µg/mL | > 10 µg/mL | > 10 µg/mL | > 10 µg/mL | 0.00495 µg/mL
8 | B8 | 0.0489 µg/mL | 0.0443 µg/mL | 0.0103 µg/mL | > 10 µg/mL | > 10 µg/mL | > 10 µg/mL | 0.011 µg/mL
9 | B9 | 0.0478 µg/mL | 0.0141 µg/mL | 0.0117 µg/mL | > 10 µg/mL | > 10 µg/mL | > 10 µg/mL | 0.00462 µg/mL
10 | B10 | 5.41 µg/mL | 0.00126 µg/mL | 3.87 µg/mL | 0.00901 µg/mL | > 10 µg/mL | > 10 µg/mL | 0.0457 µg/mL
11 | B11 | 0.00465 µg/mL | 0.00642 µg/mL | > 10 µg/mL | 0.298 µg/mL | > 10 µg/mL | > 10 µg/mL | 0.0688 µg/mL
12 | B12 | 0.333 µg/mL | 0.436 µg/mL | 0.205 µg/mL | > 10 µg/mL | > 10 µg/mL | > 10 µg/mL | 0.092 µg/mL
